Laboratory results published in patent US6960606B2, “Adamantyl Thiazole Thioureas” (Parker Hughes Institute, priority 2000, dated 2005).

Test system: HIV-1 strain HTLVIIIB
Assay: Inhibition of HIV-1 HTLVIIIB replication in PBMC (p24 antigen EIA)
Format: cell-based
Settings: selectivity index, SI=CC50/IC50
Experimental: Normal human peripheral blood mononuclear cells (PBMNC) from HIV-negative donors were cultured 72 hours in RPMI 1640 supplemented with 20% (v/v) heat-inactivated fetal bovine serum (FBS), 3% interleukin-2, 2 mM L-glutamine, 25 mM HEPES, 2 g/L NaHCO3, 50 μg/mL gentamicin, and 4 μg/mL phytohemagglutinin prior to exposure to the HIV-1 strain HTLVIIIB. The cells were then infected with virus at a multiplicity of infection (MOI) of 0.1 during a 1-hour adsorption period at 37° C. in a humidified 5% CO2 atm. Subsequently, cells were cultured in 96-well microtiter plates (100 μl/well; 2×10^6 cells/mL) in the presence of various inhibitor concentrations. Aliquots of culture supernatants were removed from the wells on the 7th day after infection for p24 antigen assays. The applied p24 enzyme immunoassay (EIA) was the unmodified kinetic assay commercially available from Coulter Corporation/Immunotech, Inc. (Westbrooke, Me.), which utilizes a murine mAb to HIV core protein coated onto microwell strips to which the antigen present in the test culture supernatant samples binds. Percent viral inhibition was calculated by comparing the p24 values from the test substance-treated infected cells with p24 values from untreated infected cells (i.e., virus controls). The effects of various treatments on cell viability were also examined and the results were expressed as the cytotoxic concentration (CC)50 values. The selectivity indices (SI) were calculated using the formula: SI=CC50/IC50.

| Substance | SI |
| --- | --- |
| N-[1-(1-Adamantyl)methyl]-N′-[2-(thiazolyl)]thiourea [Compound 5] | 40,000 |
| N-[1-(1-Furoylmethyl)]-N′-[2-(thiazolyl)]thiourea [Compound 6] | > 100,000 |
| N-[2-(2-Indole)ethyl]-N′-[2-(thiazolyl)]thiourea [Compound 8] | 28,000 |
| N-[2-(2-Thiophenylethyl)]-N′-[2-(thiazolyl)]thiourea [Compound 1] | 71,000 |
| N-[2-(4-Methylphenyl)ethyl]-N′-[2-(thiazolyl)]thiourea [Compound 4] | 1429 |
| N-[2-(Phenoxyethyl)]-N′-[2-(thiazolyl)]thiourea [Compound 3] | >100,000 |
| N-[2-Pyridylethyl]-N′-[2-(thiazolyl)]thiourea [Compound 11] | 100 |
| N-[3-(2-Imidazole)propyl]-N′-[2-(thiazolyl)]thiourea [Compound 7] | 35,000 |
| N-[3-(Pyrrolidinone)propyl]-N′-[2-(thiazolyl)]thiourea [Compound 12] | 2 |
